Values from PubChem BioAssay AID1224833 (University of Georgia, 2016).
Shown is one part, drawn at random, of about 12,000 reagents. About 5,600 of all reagents (46%) count as active. 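Active calls cover z-scores past 1 in both directions, so they include lowered as well as raised rotavirus replication.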 A number with no mark means an inactive call.

Purpose: 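Host factors restraining rotavirus as candidate antiviral genes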 (primary screen)
System: monkey MA104 kidney cells
Reagent: siRNA pool against human genes, 50 nM
Timing: 48 h knock-down before infection; read 24 h after infection
Conditions: infection with rotavirus strain RV3 two days after transfection; infectious dose for this stage not given
Measured: 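z-score of rotavirus antigen signal per well, from a fluorescent immunoassay, relative to non-targeting control wells on the same plate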
Direction: z-score vs non-targeting control: higher = more rotavirus replication than with non-targeting control
Call rule: In these data the active calls have z-score vs non-targeting control at about -1 or lower, or at about 1 or higher
Calls: active = z-score beyond 1 either way; inactive = z-score within 1 of zero

The first 5 records, to show the layout:
gene knocked down	z-score vs non-targeting control
DDAH1	-0.721
BTG4	-1.01 (active)
NAV2	-0.469
SLC25A32	-1.34 (active)
PLEKHG4	1.71 (active)

The list itself, from the start:
gene knocked down	z-score vs non-targeting control
DDAH1	-0.721
BTG4	-1.01 (active)
NAV2	-0.469
SLC25A32	-1.34 (active)
PLEKHG4	1.71 (active)
CDH13	-1.77 (active)
OR10AG1	-1.49 (active)
DDX24	1.55 (active)
SNRNP48	-1.44 (active)
MPZ	-1.77 (active)
DMRTC1	0.333
ZWILCH	-0.742
SLC35F5	-0.278
LCN15	-0.771
LGALS13	-1.36 (active)
CXCR5	-0.763
ZNF473	-1.46 (active)
EFS	-0.151
DRAM1	1.56 (active)
CELSR2	-0.654
AK8	-0.916
PHOSPHO2	-1.24 (active)
OGT	1.16 (active)
B4GALNT1	-1.55 (active)
CEP135	-0.947
BEND5	-0.738
ZNF195	-0.84
PDCD6IP	-1
MTDH	-0.498
SPTBN1	1.74 (active)
TEX26	-0.631
TMEM50A	-0.483
TCF21	-2.27 (active)
SMOC1	-0.669
DNAJC30	0.187
DMBT1	-1.96 (active)
PNLIPRP2	0.638
TERF2IP	1.28 (active)
TBX20	-1.7 (active)
CCNE2	-2.47 (active)
DCBLD1	0.205
DNAJC1	1.63 (active)
OR4K2	0.55
EXPH5	-0.763
PPP1R42	1.32 (active)
